Measurements as given in patent US7550150B2, “Methods of treating or preventing a disease, disorder or condition associated with a viral infection” (Barros Research Institute, priority 2005, dated 2009).

System: Influenza A/NWS/33 (H1N1) virus
Details: for Mean Day to Death ± SD: mice dying prior to day 21
[1] = 20 ng i.p. 4 h pre- and 3 days post-virus
[2] = 200 ng i.p. 4 h pre- and 3 days post-virus
[3] = 10 μg i.p. 4 h pre- and 3 days post-virus

Molecule: GM-CSF: Granulocyte macrophage - colony stimulating factor
- Infected, Treated Mice Surv/Total [1]: 0/10
- Mean Day 11 SaO2 (% ± SD) [1]: 75.0 ± 0.0%
- Mean Day to Death ± SD [1]: 9.9 ± 1.2 days
- Infected, Treated Mice Surv/Total [2]: 3/10
- Mean Day 11 SaO2 (% ± SD) [2]: 76.4 ± 2.5%
- Mean Day to Death ± SD [2]: 9.6 ± 0.8 days
- effect of treatment (survivors, mean day to death) (200 and 20 ng/mouse i.p. 4 h pre- and 3 days post-virus): No effect

B1: rBBX-01: Recombinant Apicomplexa-related protein (ARP) having the sequence of SEQ ID NO:20; termed Barrogen, also called rBBX-01 or E1 (protein, listed as Eimeria tenella)
chain: GEEADTQAWDTSVREWLVDTGRVFAGGVASIADGCRLFGAAVEGEGNAWEELVKTNYQIEVPQEDGTSISVDCDEAETLRQAVVDGRAPNGVYIGGTKYKLAEVKRDFTFNDQNYDVAILGKNKGGGFLIKTPNENVVIALYDEEKEQNKADALTTALNFAEYLYQGGF
- Infected, Treated Mice Surv/Total [3]: 6/10*
- Mean Day 11 SaO2 (% ± SD) [3]: 79.5 ± 4.6%
- Mean Day to Death ± SD [3]: 10.8 ± 2.4 days
- prevented deaths of infected mice (used alone, 10 μg/mouse i.p. 4 h pre- and 3 days post-virus, placebo 15% surviving): 60%

Where two headings read alike, the source gives them in different places. Marks after values point to notes of the source that are not given here.
